Test results as given in patent publication US8163745B2, “HIV inhibiting 5-(hydroxymethylene and aminomethylene) substituted pyrimidines” (Tibotec Pharmaceuticals Ltd., priority 2006, dated 2012).

tested on: wild type HIV strain IIIB; assay: Cellular anti-HIV assay in MT4 LTR-EGFP cells (GFP fluorescence), strain IIIB; cytotoxicity in mock-infected MT4 CMV-EGFP cells for the selectivity index; assay type: cell-based, HIV-1; conditions: not given
Protocol: The antiviral activity of the compound of the present invention has been evaluated in the presence of wild type HIV and HIV mutants bearing mutations at the reverse transcriptase gene. The activity of the compounds is evaluated using a cellular assay which was performed according to the following procedure.
The human T-cell line MT4 is engineered with Green Fluorescent Protein (GFP) and an HIV-specific promoter, HIV-1 long terminal repeat (LTR). This cell line is designated MT4 LTR-EGFP, and can be used for the in vitro evaluation of anti-HIV activity of investigational compounds. In HIV-1 infected cells, the Tat protein is produced which upregulates the LTR promotor and finally leads to stimulation of the GFP reporter production, allowing to measure ongoing HIV-infection fluorometrically.
Analogously, MT4 cells are engineered with GFP and the constitutional cytomegalovirus (CMV) promotor. This cell line is designated MT4 CMV-EGFP, and can be used for the in vitro evaluation of cytotoxicity of investigational compounds. In this cell line, GFP levels are comparably to those of infected MT4 LTR-EGFP cells. Cytotoxic investigational compounds reduce GFP levels of mock-infected MT4 CMV-EGFP cells.
Effective concentration values such as 50% effective concentration (EC50) can be determined and are usually expressed in μM. An EC50 value is defined as the concentration of test compound that reduces the fluorescence of HIV-infected cells by 50%. The 50% cytotoxic concentration (CC50 in μM) is defined as the concentration of test compound that reduces fluorescence of the mock-infected cells by 50%. The ratio of CC50 to EC50 is defined as the selectivity index (SI) and is an indication of the selectivity of the anti-HIV activity of the inhibitor. The ultimate monitoring of HIV-1 infection and cytotoxicity is done using a scanning microscope. Image analysis allows very sensitive detection of viral infection. Measurements are done before cell necrosis, which usually takes place about five days after infection, in particular measurements are performed three days after infection.
The columns IIIB, L100I, etc. in the table list the pEC50 values against various strains IIIB, L100I, etc.
Strain IIIB is wild type HIV strain.

Compound | pSi (IIIB)
C=CC(O)(c1nccs1)c1cnc(Nc2ccc(C#N)cc2)nc1Nc1c(C)cc(/C=C/C#N)cc1C (stereo not shown) [Compound 27] | 2.78

same assay, conditions: selectivity index = ratio of CC50 (mock-infected MT4 CMV-EGFP cells) to EC50 (strain IIIB), printed as pSI

Compound | pSi (IIIB)
Cc1cc(/C=C/C#N)cc(C)c1Nc1nc(Nc2ccc(C#N)cc2)ncc1C(O)c1ccccn1 (stereo not shown) [Compound 2] | 3.63
C=CC(O)c1cnc(Nc2ccc(C#N)cc2)nc1Nc1c(C)cc(/C=C/C#N)cc1C (stereo not shown) [Compound 12] | 3.34
Cc1cc(/C=C/C#N)cc(C)c1Nc1nc(Nc2ccc(C#N)cc2)ncc1C(C)(O)c1nccs1 (stereo not shown) [Compound 25] | 2.79
Cc1cc(/C=C/C#N)cc(C)c1Nc1nc(Nc2ccc(C#N)cc2)ncc1C(O)c1nc2ccccc2s1 (stereo not shown) [Compound 14] | 2.95
Cc1cc(/C=C/C#N)cc(C)c1Nc1nc(Nc2ccc(C#N)cc2)ncc1C(O)c1cccnc1 (stereo not shown) [Compound 4] | 3.87
COc1ccccc1C(O)c1cnc(Nc2ccc(C#N)cc2)nc1Nc1c(C)cc(/C=C/C#N)cc1C (stereo not shown) [Compound 5] | 3.78
Cc1csc(C(O)c2cnc(Nc3ccc(C#N)cc3)nc2Nc2c(C)cc(/C=C/C#N)cc2C)n1 (stereo not shown) [Compound 8] | 3.53
Cc1cc(/C=C/C#N)cc(C)c1Nc1nc(Nc2ccc(C#N)cc2)ncc1C(O)c1cncs1 (stereo not shown) [Compound 10] | 3.50
Cc1cc(/C=C/C#N)cc(C)c1Nc1nc(Nc2ccc(C#N)cc2)ncc1C(O)c1csc2nc(Cl)cn12 (stereo not shown) [Compound 18] | 3.14
Cc1cc(/C=C/C#N)cc(C)c1Nc1nc(Nc2ccc(C#N)cc2)ncc1C(O)c1cn2ccnc2s1 (stereo not shown) [Compound 16] | 3.00
Cc1cc(/C=C/C#N)cc(C)c1Nc1nc(Nc2ccc(C#N)cc2)ncc1C(O)(c1nccs1)C(C)C (stereo not shown) [Compound 26] | 2.05
Cc1cc(/C=C/C#N)cc(C)c1Nc1nc(Nc2ccc(C#N)cc2)ncc1C(O)c1scnc1Br (stereo not shown) [Compound 15] | 3.26
Cc1csc(CC(O)c2cnc(Nc3ccc(C#N)cc3)nc2Nc2c(C)cc(/C=C/C#N)cc2C)n1 (stereo not shown) [Compound 6] | 3.36
CCC(O)(c1nccs1)c1cnc(Nc2ccc(C#N)cc2)nc1Nc1c(C)cc(/C=C/C#N)cc1C (stereo not shown) [Compound 22] | 2.97
Cc1cc(/C=C/C#N)cc(C)c1Nc1nc(Nc2ccc(C#N)cc2)ncc1C(O)C#Cc1cncn1C (stereo not shown) [Compound 13] | 3.84
Cc1cc(/C=C/C#N)cc(C)c1Nc1nc(Nc2ccc(C#N)cc2)ncc1C(O)C1CCCC1 (stereo not shown) [Compound 9] | 2.94
Cc1cc(/C=C/C#N)cc(C)c1Nc1nc(Nc2ccc(C#N)cc2)ncc1C(O)c1nccn1C (stereo not shown) [Compound 11] | 3.78
Cc1cnc(C(O)c2cnc(Nc3ccc(C#N)cc3)nc2Nc2c(C)cc(/C=C/C#N)cc2C)s1 (stereo not shown) [Compound 7] | 3.15
